Measured values from several laboratories, pooled; numbers as filed in NIAID ChemDB.

Shared fields: tests in culture; organism: Candida albicans

ECn: concentration that inhibits the pathogen or its effect by n%. An empty or dashed field is not shown. MIC50, MIC90 and the like: level of inhibition, or share of isolates inhibited. Neighbouring rows are from separate reports.

compound,method,strain or isolate,read-out,result
O=C1C[C@H](O)C2(Oc3cccc4cccc(c34)O2)c2cccc(O)c21,,,EC50,12.5 µg/mL
O=C1CCCC2=C1C(c1ccc(F)cc1)N1C(=N2)Sc2c1nc[nH]c2=O,,Robin Berkho (AUCC-1720),MIC,>40 µg/mL
COc1ccc(C(=O)c2cc(C)ccc2OCc2n[nH]c(=S)n2N)cc1,,,MIC,7 µM
Clc1ccc(NCSc2nnc(C34CC5CC(CC(C5)C3)C4)o2)cc1,,ATCC 753,MIC,>400 µg/mL
Clc1ccc(CO/N=C2/c3ccccc3OCC2n2ccnc2)cc1,,,MIC,4 µg/mL
COC1=CC(=O)[C@H]2O[C@@]2(C)[C@H]1O,,,MIC,200 µg/mL
COc1ccc(N2CCN(Cn3nc(C45CC6CC(CC(C6)C4)C5)oc3=S)CC2)cc1,,ATCC 753,MIC,400 µg/mL
CCC(C)n1ncn(-c2ccc(N3CCN(c4ccc(OC[C@H]5CO[C@](Cn6cncn6)(c6ccc(Cl)cc6Cl)O5)cc4)CC3)cc2)c1=O,,,EC50,<5 µg/mL
CC(n1ncn(-c2ccc(-n3ccnn3)cc2)c1=O)C(O)(Cn1cncn1)c1ccc(F)cc1F,,TA,MIC,0.03 µg/mL
CCCCCCCCCCCC[N+](C)(C)COCC,,ATCC 10231,MIC,81 µM
Clc1ccc(CO/N=C2/c3ccccc3OCC2n2ccnc2)c(Cl)c1,,,MIC,32 µg/mL
O=C(c1ccccc1)c1ccc(Br)cc1OCc1n[nH]c(=S)o1,,,MIC,3 µM
C[C@@H](c1nc(-c2ccc(C#N)cc2)cs1)[C@](O)(Cn1cnnc1)c1ccc(F)cc1F,,A28235,MIC,≤0.007 µg/mL
FC(F)(F)c1ccccc1CN1CCN(Cn2nc(C34CC5CC(CC(C5)C3)C4)oc2=S)CC1,,ATCC 753,MIC,>400 µg/mL
CCCCCCCCCCCC[N+](C)(C)CSCCCCC,,ATCC 10231,MIC,27.3 µM
O=C(Nc1ccc(Cc2nc3ccccc3s2)cc1)c1ccc(Cl)cc1,broth dilution,ATCC 10231,MIC100,25 µg/mL
Cc1c(C(=O)O)c(-c2ccc(Cl)cc2)cn1-c1ccc(F)cc1,,40 strains,Mean MIC,83.33 µg/mL
S=c1oc(C23CC4CC(CC(C4)C2)C3)nn1CN1CCN(c2ccccc2)CC1,,ATCC 753,MIC,400 µg/mL
Cc1c(C(=O)O)c(-c2ccc(Cl)cc2)cn1-c1ccc(Br)cc1,,40 strains,Mean MIC,24.85 µg/mL
Cc1cc2c(c(O)c1-c1c(C)cc(O)c3c1C(=O)C=CC3=O)C(=O)C=CC2=O,,,EC50,>20 µg/mL
Brc1ccc(CO/N=C2\c3ccccc3OCC2n2ccnc2)cc1,,,MIC,4 µg/mL
C[C@H]1[C@H](O)[C@@H](C)/C=C/C=C/C=C/C=C/C=C/C=C/C=C/[C@H](O[C@@H]2O[C@H](C)[C@@H](O)[C@H](N)[C@@H]2O)C[C@@H]2O[C@](O)(C[C@@H](O)C[C@@H](O)CC[C@H](O)[C@@H](O)C[C@@H](O)CC(=O)O[C@H]1C)C[C@H](O)[C@H]2C(=O)O,broth dilution,20,EC50,1 µM
Cc1ccc(C(=O)NNC(=S)Nn2c(-c3ccccc3)nc3ccccc3c2=O)cc1,,ATCC 753,MIC,100 µg/mL
Cc1nc(-c2ccc(-n3ccn(C(C)C(O)(Cn4cncn4)c4ccc(F)cc4F)c3=O)cc2)cs1,,TA,MIC,0.004 µg/mL
Cc1ccc(-c2cn(-c3ccc(Cl)cc3)c(C)c2C(=O)O)cc1,,40 strains,Mean MIC,36.5 µg/mL
N#CCCN1C(=S)NC2=C(C(=O)CCC2)C1c1ccc(F)cc1,,Robin Berkho (AUCC-1720),MIC,>40 µg/mL
CCNC(=S)Nn1cnc2ccccc2c1=O,,ATCC 753,MIC,100 µg/mL
Clc1ccc(CO/N=C2\c3ccccc3OCC2n2ccnc2)c(Cl)c1,,,MIC,1 µg/mL
Fc1ccc(N2CCN(Cn3nc(C45CC6CC(CC(C6)C4)C5)oc3=S)CC2)cc1,,ATCC 753,MIC,200 µg/mL
CC(n1ncn(-c2ccc(-n3nccn3)cc2)c1=O)C(O)(Cn1cncn1)c1ccc(F)cc1F,,TA,MIC,<0.016 µg/mL
Nn1c(COc2ccc(Cl)cc2C(=O)c2ccccc2)n[nH]c1=S,,,MIC,2.5 µM
O=c1cc(-c2ccc(O)cc2)oc2cc(O)cc(O)c12,,,MIC,3.12 µg/mL
CCCCCCCCCCCC[N+](C)(C)COCC(C)CCC,,ATCC 10231,MIC,27.5 µM
CC(n1ncn(-c2ccc(-n3cccn3)cc2)c1=O)C(O)(Cn1cncn1)c1ccc(F)cc1F,,TA,MIC,0.002 µg/mL
C/C(=N\NC(=S)Nc1cccc(Cl)c1)c1c(O)ccc2c(C)cc(=O)oc12,,,MIC,10 µg/mL
Cc1c(C(=O)O)c(-c2ccc(F)cc2)cn1-c1ccc(F)cc1,,40 strains,EC50,>41.67 µg/mL
CCCCCCCCCCCC[N+](C)(C)CSCCCC,,ATCC 10231,MIC,142 µM
CCC(C)n1ncn(-c2ccc(N3CCN(c4ccc(OC[C@H]5CO[C@](Cn6cncn6)(c6ccc(Cl)cc6Cl)O5)cc4)CC3)cc2)c1=O,,TIMM1756,MIC,0.03 µg/mL
Clc1ccc2c(c1)OCC(n1ccnc1)/C2=N\OCc1ccccc1,,,MIC,4 µg/mL
Cc1c(C(=O)O)c(-c2ccc(Br)cc2)cn1-c1ccc(Cl)cc1,,40 strains,EC50,>17.32 µg/mL
Nc1[nH]c(=O)ncc1F,,,EC50,<5 µg/mL
C[C@H](N1CCN(c2ccc(-n3cccn3)cc2)C1=O)[C@@](O)(Cn1cncn1)c1ccc(F)cc1F,,TA,MIC,0.002 µg/mL
CCCCCCCCCCCC[N+](C)(C)CSCCCCCCCC,,ATCC 10231,MIC,24.5 µM
O=C(c1ccccc1)c1cc(Cl)ccc1OCc1n[nH]c(=S)o1,,,MIC,6 µM
C=CCc1ccc(O)c(OC)c1,turbidity,2642,MIC90,475 µg/mL
O=C(CCc1ccccc1)Nc1ccc(-c2nc3ccccc3s2)cc1,broth dilution,ATCC 10231,MIC100,25 µg/mL
CCCCCCCCCCCC[N+](C)(C)COC(CCC)CCC,,ATCC 10231,MBC,26.4 µM
O=CN1C(=S)NC2=C(C(=O)CCC2)C1c1ccc(F)cc1,,Robin Berkho (AUCC-1720),MIC,>40 µg/mL
CN1CCN(Cn2nc(C34CC5CC(CC(C5)C3)C4)oc2=S)CC1,,ATCC 753,MIC,200 µg/mL
O=C1CCCC2=C1C(c1ccc(F)cc1)N1C(=N2)SC2=C1NS(=O)NC2=O,,Robin Berkho (AUCC-1720),MIC,>40 µg/mL
CCCCCCCCCCCC[N+](C)(C)COCC(CC)CC,,ATCC 10231,MIC,27.5 µM
COC(=O)[C@H]1[C@@H]2C[C@@H](O[C@@H]3O[C@H](C)[C@@H](O)[C@H](N)[C@@H]3O)/C=C/C=C/C=C/C=C/C=C/C=C/C=C/[C@H](C)[C@@H](O)[C@H](C)[C@H](C)OC(=O)C[C@H](O)C[C@H](O)[C@@H](O)CC[C@H](O)C[C@H](O)C[C@](O)(C[C@@H]1O)O2,,,EC50,<5 µg/mL
Cc1ccc(C(=O)c2cc(C)ccc2OCc2n[nH]c(=S)o2)cc1,,,MIC,12 µM
CCOc1ccc2nc3cc(N=C4NC(=O)/C(=C\c5ccc([N+](=O)[O-])o5)S4)ccc3c(N)c2c1,broth dilution,ATCC 60193,MFC,250 µM
N#CC1=C(N)N2C(=NC3=C(C(=O)CCC3)C2c2ccc(F)cc2)S1,,Robin Berkho (AUCC-1720),MIC,40 µg/mL
COc1ccc(CCC(=O)Nc2ccc(-c3nc4ccccc4s3)cc2)cc1,broth dilution,ATCC 10231,MIC100,25 µg/mL